Anti-infective test results gathered from many reports (values: NIAID ChemDB through PubChem).

Common to all: tests on isolated targets; agent: HIV-1; target: Integrase; read by: disintegration; measure: IC50

ICn: concentration for n% inhibition.

smiles,strain or isolate,result
COC(=O)C(=O)OC1(C(=O)O)C[C@@H](OC(=O)/C=C/c2ccc(O)c(O)c2)C(O)[C@H](OC(=O)/C=C/c2ccc(O)c(O)c2)C1,NL4-3,0.8 µM
Cc1cc(O)c2c(c1)C(=O)c1cc(O)cc(O)c1C2=O,,>40 µM
O=C(/C=C/c1ccc(O)c(O)c1)O[C@@H]1CC(O)(C(=O)O)C[C@@H](OC(=O)/C=C/c2ccc(O)c(O)c2)C1O,,0.66 µg/mL
O=C1/C(=C/c2cc(O)c(O)c(O)c2)COC/C1=C\c1cc(O)c(O)c(O)c1,,10 µM
O=S(=O)(SC(Cl)(Cl)Cl)c1cccc(S(=O)(=O)c2cccc(S(=O)(=O)SC(Cl)(Cl)Cl)c2)c1,,28 µM
CN(C)CCCNC(=O)c1cc(NC(=O)c2cc(NC(=O)c3cc(NC4C(=O)c5ccccc5C4=O)cn3C)cn2C)cn1C,,10.2 µM
O=Cc1cc(S(=O)(=O)c2ccc(O)c(C=O)c2)ccc1O,,5.7 µM
O=C(/C=C/c1ccc(O)c(O)c1)O[C@@H]1C[C@](OC(=O)/C=C/c2ccc(O)c(O)c2)(C(=O)O)C[C@@H](O)[C@H]1O,LAI,0.84 ± 0.08 µg/mL
N#C/C(=C\c1cc(O)c(O)c(O)c1)C(=O)NCCCCCNC(=O)/C(C#N)=C/c1cc(O)c(O)c(O)c1,,2 µM
CC(=O)Oc1ccc(/C=C/C(=O)O[C@H](C(=O)O)[C@H](OC(=O)/C=C/c2ccc(OC(C)=O)c(OC(C)=O)c2)C(=O)O)cc1OC(C)=O,IIIB,10 µM
CN1C/C(=C\c2cc(O)c(O)c(O)c2)C(=O)/C(=C/c2cc(O)c(O)c(O)c2)C1,,1 µM
O=CNc1ccc(S(=O)(=O)c2ccc(NC=O)cc2)cc1,,>100 µM
N#C/C(=C\c1cc(O)c(O)c(O)c1)C(=O)NCCCCNC(=O)/C(C#N)=C/c1cc(O)c(O)c(O)c1,,0.4 µM
O=C1NC(=O)C(=Cc2cc(O)c(O)c(O)c2)C(=O)N1,,5.3 µM
COC(=O)c1c(C)c2c(c(C)c1O)OC(=O)c1c(C)cc(O)c(C=O)c1O2,,25 µM
O=C1/C(=C/c2cc(O)c(O)c(O)c2)CCC/C1=C\c1cc(O)c(O)c(O)c1,,1.6 µM
N#C/C(=C\c1cc(O)c(O)c(Br)c1)C(=O)NCCCNC(=O)/C(C#N)=C/c1cc(O)c(O)c(Br)c1,,0.8 µM
COc1cc(/C=C/C(=O)CC(=O)/C=C/c2ccc(O)c(OC)c2)ccc1O,,~220 µM
N#C/C(=C\c1ccc(O)c(O)c1)C(=O)NCCCCCCNC(=O)/C(C#N)=C/c1ccc(O)c(O)c1,,3 µM
O=C(O)/C=C/c1ccc(O)c(O)c1,LAI,>50 µg/mL

For reference, 2 entries again:

smiles,strain or isolate,result
COC(=O)C(=O)OC1(C(=O)O)C[C@@H](OC(=O)/C=C/c2ccc(O)c(O)c2)C(O)[C@H](OC(=O)/C=C/c2ccc(O)c(O)c2)C1,NL4-3,0.8 µM
N#C/C(=C\c1cc(O)c(O)c(Br)c1)C(=O)NCCCNC(=O)/C(C#N)=C/c1cc(O)c(O)c(Br)c1,,0.8 µM

Neighbouring rows are from separate reports. Blank or dashed fields: not listed here.